Source: the NIST ThermoML archive (doi:10.1021/je900586f)

Columns and labels:
[1] = xn = mol fraction of the nth substance listed; conditions: 298.15 K, 101 kPa, Liquid, Vibrating tube method
[2] = refractive index (Na D-line) (dimensionless); xn = mol fraction of the nth substance listed; conditions: 298.15 K, 101 kPa, Liquid, Standard Abbe refractometry
[3] = refractive index (Na D-line) (dimensionless); conditions: 298.15 K; 101.33 kPa; Liquid; Standard Abbe refractometry

CCCCOP(=O)(OCCCC)OCCCC [tributyl phosphate] + CCCCCCCCCCO
Conditions | mass density, [1] [kg/m3] | refractive index, [2]
x1 = 0.0496 | 835.9 ± 0.7 | 1.4341 ± 0.0008
x1 = 0.0999 | 845.2 ± 0.7 | 1.4329 ± 0.0008
x1 = 0.2008 | 862.8 ± 0.7 | 1.4307 ± 0.0008
x1 = 0.3001 | 879.1 ± 0.7 | 1.429 ± 0.0008
x1 = 0.4004 | 894.7 ± 0.7 | 1.4275 ± 0.0008
x1 = 0.4996 | 909.3 ± 0.7 | 1.4262 ± 0.0008
x1 = 0.6007 | 923.4 ± 0.8 | 1.4252 ± 0.0008
x1 = 0.6981 | 936.3 ± 0.8 | 1.4244 ± 0.0008
x1 = 0.7985 | 949 ± 0.8 | 1.4236 ± 0.0008
x1 = 0.9003 | 961.2 ± 0.8 | 1.423 ± 0.0008
x1 = 0.9505 | 967 ± 0.8 | 1.4227 ± 0.0008

CCCCCCCCN(CCCCCCCC)CCCCCCCC [trioctylamine] + CCCCOP(=O)(OCCCC)OCCCC
Conditions | mass density, [1] [kg/m3] | refractive index, [2]
x1 = 0.0499 | 959.1 ± 0.8 | 1.4243 ± 0.0005
x1 = 0.0995 | 946.5 ± 0.8 | 1.4259 ± 0.0005
x1 = 0.1998 | 923.5 ± 0.8 | 1.4286 ± 0.0005
x1 = 0.3002 | 903 ± 0.7 | 1.4315 ± 0.0005
x1 = 0.3997 | 885 ± 0.7 | 1.4341 ± 0.0005
x1 = 0.5004 | 868.6 ± 0.7 | 1.4366 ± 0.0005
x1 = 0.6001 | 853.9 ± 0.7 | 1.4391 ± 0.0005
x1 = 0.7006 | 840.6 ± 0.7 | 1.4413 ± 0.0005
x1 = 0.8008 | 828.5 ± 0.7 | 1.4434 ± 0.0005
x1 = 0.9009 | 817.5 ± 0.6 | 1.4454 ± 0.0005
x1 = 0.9514 | 812.3 ± 0.6 | 1.4465 ± 0.0005

CCCCOP(=O)(OCCCC)OCCCC [tributyl phosphate] + CCCCCCCCO
Conditions | mass density, [1] [kg/m3] | refractive index, [2]
x1 = 0.0496 | 833.7 ± 0.7 | 1.427 ± 0.0008
x1 = 0.0998 | 844.7 ± 0.7 | 1.4259 ± 0.0008
x1 = 0.1996 | 865 ± 0.7 | 1.4243 ± 0.0008
x1 = 0.2995 | 883.2 ± 0.7 | 1.4225 ± 0.0008
x1 = 0.4001 | 899.7 ± 0.7 | 1.4216 ± 0.0008
x1 = 0.5002 | 914.6 ± 0.7 | 1.4213 ± 0.0008
x1 = 0.5988 | 928.1 ± 0.8 | 1.4213 ± 0.0008
x1 = 0.7011 | 940.9 ± 0.8 | 1.4216 ± 0.0008
x1 = 0.8011 | 952.5 ± 0.8 | 1.4219 ± 0.0008
x1 = 0.9008 | 963 ± 0.8 | 1.4221 ± 0.0008
x1 = 0.9513 | 968 ± 0.8 | 1.4224 ± 0.0008

CCCCOP(=O)(OCCCC)OCCCC [tributyl phosphate]
Conditions | mass density [kg/m3]
298.15 K, 101.33 kPa, Liquid, Vibrating tube method | 972.69 ± 5.1

Conditions | Normal melting temperature [°C]
Crystal, visual observation | -78.84 ± 0.5

Conditions | refractive index
[3] | 1.42252 ± 0.001

Numbers after ± are expanded uncertainties.
